ChEMBL document CHEMBL2331417, “Kinetic and anion inhibition studies of a β-carbonic anhydrase (FbiCA 1) from the C4 plant Flaveria bidentis” (Bioorg Med Chem Lett, 2013)

Protein sequences, listed by entry. Tags and fused reporters are not part of them.
UniProt O24855, whole entry, entry inferred from the test as described: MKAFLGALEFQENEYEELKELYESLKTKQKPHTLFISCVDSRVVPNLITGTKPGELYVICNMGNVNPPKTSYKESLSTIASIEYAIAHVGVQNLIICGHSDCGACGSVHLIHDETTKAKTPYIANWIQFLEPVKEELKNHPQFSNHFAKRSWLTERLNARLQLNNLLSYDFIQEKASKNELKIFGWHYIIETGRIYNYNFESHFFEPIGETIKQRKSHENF

Target: Unchecked (UniProt O24855)
Assay: Inhibition of Helicobacter pylori beta-carbonic anhydrase preincubated for 15 mins by stopped flow CO2 hydration assay

SMILES: O=[As](O)(O)c1ccccc1 [PHENYLARSONIC ACID]
- Ki: 92 µM
